Pooled drug test results. Numbers come from NIAID ChemDB, via PubChem.

Shared fields: target-level tests; species: HIV-1; target: Protease; read by: HPLC; read-out: IC50

ICn is the concentration giving n% inhibition. An empty or dashed field is not shown. Rows are shuffled and stem from different studies.

structure	strain	conditions	value
CC1(C)CC[C@]2(C(=O)O)CC[C@]3(C)C(=CCC4[C@@]5(C)CC[C@H](OC(=O)CCCCCCC(=O)O)C(C)(C)C5CC[C@]43C)C2C1			3 µM
CC1(C)CC2C3=CCC4[C@@]5(C)CC[C@H](O)C(C)(C)C5CC[C@@]4(C)[C@]3(C)CC[C@@]2(C)[C@H](O)C1			18.8 µM
CSCC[C@H](NC(=O)[C@H](CO)N(Cc1ccccc1)C(=O)[C@H](CC(C)C)NC(=O)OCC1c2ccccc2-c2ccccc21)C(=O)NC(C)(C)C			1.01 µM
CC(C)[C@H](NC(=O)C(Cc1ccccc1)CS(=O)(=O)CCO)C(=O)N[C@@H](Cc1ccccc1)[C@@H](O)[C@H](O)[C@H](Cc1ccccc1)NC(=O)[C@@H](NC(=O)C(Cc1ccccc1)CS(=O)(=O)CCO)C(C)C	D34		0.0048 µM
COC(=O)[C@]12CCC(C)(C)CC1C1=CCC3[C@@]4(C)CC[C@@H](NC(=O)CCCCC(=O)O)C(C)(C)C4CC[C@@]3(C)[C@]1(C)CC2			3.5 µM
COC(=O)[C@]12CCC(C)(C)CC1C1=CCC3[C@@]4(C)CC[C@@H](N)C(C)(C)C4CC[C@@]3(C)[C@]1(C)CC2			>20 µM
CC(C)[C@H](NC(=O)[C@@H](N)Cc1ccccc1)C(=O)N[C@@H](Cc1ccccc1)[C@H](O)CNC[C@@H](O)[C@H](Cc1ccccc1)NC(=O)[C@@H](NC(=O)[C@@H](N)Cc1ccccc1)C(C)C		pH 5.5	<10 µM
CSCC[C@H](NC(=O)[C@H](CO)N(Cc1ccccc1)C(=O)[C@H](Cc1ccccc1)NC(=O)OCc1ccccc1)C(=O)NC(C)(C)C			0.37 µM
CC(C)C[C@H](NC(=O)[C@@H](NC(=O)CCCCCCCCCCCCCCC(=O)N[C@@H](CC(N)=O)C(=O)N[C@@H](CC1CCCCC1)C(=O)O)C(C)O)C(=O)N[C@@H](Cc1ccc(-c2ccccc2)cc1)C(N)=O			0.69 µM
CCCCCCCCCCCCCc1cccc(O)c1			>100 µM
CC1(C)CC[C@]2(C(=O)O)CC[C@]3(C)C(=CCC4[C@@]5(C)CC[C@H](OC(=O)CCCC(=O)O)C(C)(C)C5CC[C@]43C)C2C1			4 µM
CC(C)(C)OC(=O)N[C@@H](Cc1ccccc1)[C@H](O)CNC[C@@H](O)[C@H](Cc1ccccc1)NC(=O)OC(C)(C)CCOCc1ccccc1		pH 5.5	<10 µM
CC(C)[C@H](NC(=O)[C@H](Cc1cccc2ccccc12)CS(=O)(=O)C(C)(C)C)C(=O)N[C@@H](Cc1ccccc1)[C@@H](O)[C@H](O)[C@H](Cc1ccccc1)NC(=O)[C@@H](NC(=O)[C@H](Cc1cccc2ccccc12)CS(=O)(=O)C(C)(C)C)C(C)C	D34		0.0003 µM
CC(C)(C)OC(=O)N[C@@H](Cc1ccccc1)[C@H](O)CNC[C@@H](O)[C@H](Cc1ccccc1)NC(=O)O[C@@H]1CCc2ccccc21		pH 5.5	<10 µM
CC1(C)CC[C@]2(C(=O)O)CC[C@]3(C)C(=CCC4[C@@]5(C)CC[C@H](OC(=O)CC(=O)O)C(C)(C)C5CC[C@]43C)C2C1			8 µM
CN(C(=O)NC(C)(C)C)[C@@H](Cc1ccccc1)[C@H](O)CNC[C@@H](O)[C@H](Cc1ccccc1)NC(=O)OC(C)(C)C		pH 5.5	10 µM
CC(C)(C)S(=O)(=O)C[C@@H](Cc1cccc2ccccc12)C(=O)N1CCC[C@H]1C(=O)N[C@@H](Cc1ccccc1)[C@@H](O)[C@H](O)[C@H](Cc1ccccc1)NC(=O)[C@@H]1CCCN1C(=O)[C@H](Cc1cccc2ccccc12)CS(=O)(=O)C(C)(C)C	D34		20 µM
CC(C)C[C@H](NC(=O)[C@@H](NC(=O)CCCCCCCCCCCCCCC(=O)N[C@@H](CS(C)(=O)=O)C(=O)N[C@@H](Cc1ccccc1)C(=O)O)C(C)O)C(=O)N[C@@H](Cc1cc(I)c(Oc2cc(I)c(O)c(I)c2)c(I)c1)C(N)=O			0.46 µM
CC(C)[C@H](NC(=O)[C@H](Cc1cccc2ccccc12)CS(=O)(=O)C(C)(C)C)C(=O)N[C@@H](Cc1ccccc1)[C@H](O)[C@H](O)[C@H](Cc1ccccc1)NC(=O)[C@@H](NC(=O)[C@H](Cc1cccc2ccccc12)CS(=O)(=O)C(C)(C)C)C(C)C	D34		0.0005 µM
CSCC[C@H](NC(=O)[C@H](CCO)N(Cc1ccccc1)C(=O)[C@H](Cc1ccccc1)NC(=O)OCc1ccccc1)C(=O)NC(C)(C)C			0.62 µM
CSCC[C@H](NC(=O)CCCCCCCCCCCCCCC(=O)N[C@H](C(=O)N[C@H](C(=O)N[C@@H](Cc1ccccc1)C(N)=O)C1CCCCC1)C(C)O)C(=O)N[C@@H](Cc1ccccc1)C(=O)O			0.48 µM
Cc1c(O)cccc1C(=O)N[C@@H](Cc1ccccc1)C(=O)N(O)[C@@H](Cc1ccccc1)C(=O)N1CCC[C@@H]1C(=O)NC(C)(C)C			0.89 µM
CC(C)[C@H](NC(=O)[C@H](Cc1cccc2ccccc12)CS(=O)(=O)C(C)(C)C)C(=O)N[C@@H](Cc1ccc2c(c1)OCO2)[C@@H](O)[C@H](O)[C@H](Cc1ccc2c(c1)OCO2)NC(=O)[C@@H](NC(=O)[C@H](Cc1cccc2ccccc12)CS(=O)(=O)C(C)(C)C)C(C)C	D34		0.0004 µM
CSCC[C@H](NC(=O)CCCCCCCCCCCCCCC(=O)N[C@H](C(=O)N[C@@H](CC(C)C)C(=O)N[C@@H](Cc1ccccc1)C(N)=O)C(C)O)C(=O)N[C@@H](Cc1ccccc1)C(=O)O			2.7 µM
Cc1c(O)cccc1C(=O)N(O)CC(=O)N[C@@H](Cc1ccccc1)C(=O)NC(C)(C)C			3.4 µM
CSCC[C@H](NC(=O)[C@H](CCO)N(Cc1ccccc1)C(=O)[C@H](Cc1ccccc1)NC(=O)OC1c2ccccc2-c2ccccc21)C(=O)NC(C)(C)C			0.297 µM
CC(C)C[C@H](NC(=O)[C@@H](NC(=O)CCCCCCCCCCCCCCC(=O)N[C@@H](CC(N)=O)C(=O)N[C@@H](CCc1ccccc1)C(=O)O)C(C)O)C(=O)N[C@H](C(N)=O)C1CCCCC1			0.53 µM
C=C(C)[C@@H]1CC[C@]2(C(=O)O)CC[C@]3(C)[C@H](CC[C@@H]4[C@@]5(C)CC[C@H](OC(=O)CC(=O)O)C(C)(C)C5CC[C@]43C)[C@@H]12			6 µM
CC(C)C[C@H](NC(=O)[C@@H](NC(=O)CCCCCCCCCCCCCCC(=O)N[C@@H](CC(N)=O)C(=O)N[C@@H](Cc1ccccc1)C(=O)O)C(C)O)C(=O)N[C@H](C(N)=O)C1CCCCC1			3.1 µM
CC(C)[C@H](NC(=O)CNC(=O)OC(C)(C)C)C(=O)N[C@@H](Cc1ccccc1)[C@H](O)CNC[C@@H](O)[C@H](Cc1ccccc1)NC(=O)[C@@H](NC(=O)CNC(=O)OC(C)(C)C)C(C)C		pH 5.5	<10 µM
CCCCCC(=O)O[C@H]1CC[C@@]2(C)C(CC[C@]3(C)C2CC=C2C4CC(C)(C)CC[C@]4(C(=O)O)CC[C@]23C)C1(C)C			>20 µM
C[C@@H](O)[C@H](NC(=O)CCCCCCCCCCCCCCC(=O)N[C@@H](CC(N)=O)C(=O)N[C@@H](Cc1ccccc1)C(=O)O)C(=O)N[C@H](C(=O)N[C@@H](Cc1ccccc1)C(N)=O)C1CCCCC1			0.68 µM
COC(=O)CCCCC(=O)O[C@H]1CC[C@@]2(C)C(CC[C@]3(C)C2CC=C2C4CC(C)(C)CC[C@]4(C(=O)OC)CC[C@]23C)C1(C)C			>20 µM
CC(C)(C)NC(=O)[C@H](Cc1ccccc1)NC(=O)CN(O)C(=O)[C@H](Cc1ccccc1)NC(=O)OCC1c2ccccc2-c2ccccc21			0.93 µM
CCCCCC/C=C/CCCCCCCCCc1cccc(O)c1			>100 µM
CC(C)[C@H](NC(=O)OCc1ccccc1)C(=O)N[C@@H](Cc1ccccc1)[C@H](O)CNC[C@H](O)[C@H](Cc1ccccc1)NC(=O)OC(C)(C)C		pH 5.5	10 µM
CCCCCCCCCCCCCc1cc(O)cc(O)c1			5.8 µM
CC(C)C[C@H](NC(=O)[C@@H](NC(=O)CCCCCCCCCCCCCCC(=O)N[C@@H](CC(N)=O)C(=O)N[C@@H](CC1CCCCC1)C(=O)O)C(C)C)C(=O)N[C@@H](Cc1ccccc1)C(N)=O			0.41 µM
COC(=O)[C@]12CCC(C)(C)CC1C1=CCC3[C@@]4(C)CC[C@@H](NC(=O)CCCCC(=O)O)C(C)(C)C4CC[C@@]3(C)[C@]1(C)CC2			3.5 µM
CC(O)[C@H](NC(=O)CCCCCCCCCCCCCCC(=O)N[C@@H](CC(N)=O)C(=O)N[C@@H](Cc1ccccc1)C(=O)O)C(=O)N[C@@H](CC1CCCCC1)C(=O)N[C@@H](Cc1ccccc1)C(N)=O			1.6 µM
COC(=O)[C@]12CCC(C)(C)C[C@H]1C1=CC[C@@H]3[C@@]4(C)CC[C@H](O)C(C)(C)[C@@H]4CC[C@@]3(C)[C@]1(C)CC2			20 µM
CC(C)(C)OC(=O)N[C@@H](Cc1ccccc1)[C@H](O)CNC[C@@H](O)[C@H](Cc1ccccc1)NC(=O)O[C@H]1CCc2ccccc21		pH 5.5	<10 µM
CC1(C)CC[C@]2(C(=O)O)CC[C@]3(C)C(=CCC4[C@@]5(C)CC[C@@H](NC(=O)CCCCC(=O)O)C(C)(C)C5CC[C@]43C)C2C1			2.1 µM
CC(C)(C)NC(=O)[C@H]1CCCN1C(=O)[C@H](Cc1ccccc1)N(O)C(=O)[C@H](Cc1ccccc1)NC(=O)OC(C)(C)C			0.73 µM

The last 5 rows once more:

structure	strain	conditions	value
CC(O)[C@H](NC(=O)CCCCCCCCCCCCCCC(=O)N[C@@H](CC(N)=O)C(=O)N[C@@H](Cc1ccccc1)C(=O)O)C(=O)N[C@@H](CC1CCCCC1)C(=O)N[C@@H](Cc1ccccc1)C(N)=O			1.6 µM
COC(=O)[C@]12CCC(C)(C)C[C@H]1C1=CC[C@@H]3[C@@]4(C)CC[C@H](O)C(C)(C)[C@@H]4CC[C@@]3(C)[C@]1(C)CC2			20 µM
CC(C)(C)OC(=O)N[C@@H](Cc1ccccc1)[C@H](O)CNC[C@@H](O)[C@H](Cc1ccccc1)NC(=O)O[C@H]1CCc2ccccc21		pH 5.5	<10 µM
CC1(C)CC[C@]2(C(=O)O)CC[C@]3(C)C(=CCC4[C@@]5(C)CC[C@@H](NC(=O)CCCCC(=O)O)C(C)(C)C5CC[C@]43C)C2C1			2.1 µM
CC(C)(C)NC(=O)[C@H]1CCCN1C(=O)[C@H](Cc1ccccc1)N(O)C(=O)[C@H](Cc1ccccc1)NC(=O)OC(C)(C)C			0.73 µM